Measurements from patent US10323012B2 (priority 2012, dated 2019).

System: HIV/VSV-G virions

| Substance | Selective Index (CC50/IC50), anti-HIV |
| --- | --- |
| 8′,10′-Dihydroxy-miliusate | 9.5 |
| 10′-Hydroxy-8′-oxo-miliusate | 12.1 |
